Test results from article PMC4464171.

Assays:
[1] = target: HpArsR-P (phosphorylated ArsR) (Helicobacter pylori J99) (UniProt Q9ZMR6); test: fluorescence anisotropy (direct titration); conditions: 5 mM MgCl2, phosphorylated ArsR; 50 mM Tris-HCl, 5 mM MgCl2, 100 mM KCl, 5 mM TCEP, pH 7.5, 25 C; 15 nM PureA-F (direct) or 5 nM PureA-F + 1.5 uM HpArsR-P (competition); recombinant protein; protein details: N-terminal His6 (pQE3)
[2] = target: HpArsR-P (phosphorylated ArsR) (Helicobacter pylori J99) (UniProt Q9ZMR6); test: fluorescence anisotropy competition; conditions: 5 mM MgCl2, competitor vs 5 nM PureA-F, 1.5 uM HpArsR-P; 50 mM Tris-HCl, 5 mM MgCl2, 100 mM KCl, 5 mM TCEP, pH 7.5, 25 C; 15 nM PureA-F (direct) or 5 nM PureA-F + 1.5 uM HpArsR-P (competition); recombinant protein; protein details: N-terminal His6 (pQE3); label: none (competitor)

Sequence | Kd [1] [nM] | Kd [2] [nM]
CTTCAAAGATATAACACTAATTCATTTTAAATAATAATTAGTTAATGA (double strand) [PureA WT/WT (PureA-F)] | 17 | 
CTTCAAAGATACCCCCCCAATTCATTTTAAATAATAATTAGTTAATGA (double strand) [PureA C/WT] |  | 20
CTTCAAAGATACCCCCCCAATTCATTTTACCCCCCCATTAGTTAATGA (double strand) [PureA C/C] |  | 23
CTTCAAAGATATAACACTAATTCATTTTACCCCCCCATTAGTTAATGA (double strand) [PureA WT/C] |  | 24

The exact form of at least one protein or probe is not confirmed.
